Data set [1] concerns Phorbia antiqua-Maden (im Boden). The experiment in a line: Limit concentration test / soil insects (Grenzkonzentrations-Test / Bodeninsekten). The settings on record: 20 ppm in soil; insects added after 24 h, counted after a further 2 to 7 days.
The subject of a further data set is Lucilia cuprina. The experiment in a line: Impregnated filter paper test (Example C), Lucilia cuprina. The settings on record: 1000 ppm.

Drawing on patent EP0417558A2, “S-haloalkyl(di)(tri)(thio)phosphoric(phosphonic)acid(amide) esters” (dated 1991), this text covers Wirkungsgrad and Wirkung for 3 compounds.

The compound `CCOP(=O)(NC(C)C)SC(C)(F)F` (racemic) showed a Wirkungsgrad in data set [1] of 100%.
In the case of `CCOP(=S)(NC(C)C)SC(C)(F)F` (racemic), the Wirkung in the data set with Lucilia cuprina is reported as 100%.
On to `CCOP(=S)(SC(C)(F)F)N(C)C` (racemic), for which the Wirkung in the data set on Lucilia cuprina came out at 100%. The same compound registered a Wirkungsgrad in data set [1] of 100%.
